Tested on: CYP1A1/2
Test: Induction of CYP1A1/2 enzymes in minipig assessed as increase in EROD enzyme activity at 500 mg/kg/day, po for 39 weeks relative to control
Type: ADME, organism-based, Sus scrofa domesticus
Settings: pig, in vivo, read-out: FC

## CCS(=O)(=O)c1ccc2oc(-c3ccc4ccccc4c3)nc2c1 [EZUTROMID]
  fold induction at 6552 h: 2.1

— ChEMBL document CHEMBL4376826, “Isolation, Structural Identification, Synthesis, and Pharmacological Profiling of 1,2-trans-Dihydro-1,2-diol Metabolites of the Utrophin Modulator Ezutromid” (J Med Chem, 2020)
